The target of the experiment is PRD-0038 receptor-binding domain (RBD), wildtype (sarbecovirus PRD-0038 (Rhinolophus bat, …, biotin on the Avi tag (BirA))). Put plainly: BLI. Background: In BLI a coated tip is dipped into the sample, and binding shifts an interference pattern.

B1: R. alcyone ACE2-His (monomeric ectodomain) (domain or fragment)
chain: STPEDLAKIFLDNFNSEAENLSHQSSLASWEYNTNISDENIQKMDEAGAKWSDFYETQSKHAKNFSLEEIHNDTVKLQLQILQQSGSPVLSEDKSKRLNSILNAMSTIYSTGKVCRPNNPQECLLLEPGLDNIMGTSKDYNERLWAWEGWRAEVGKQLRPLYEEYVVLKNEMARGYHYEDYGDYWRRDYETEGSPDLEYSRDQLTKDVERIFAEIKPLYEQLHAYVRTKLMDTYPFHISPTGCLPAHLLGDMWGRFWTNLYPLTVPFAQKPNIDVTDAMLNQTWDAKRIFKEAEKFFVSIGLPHMTEGFWNNSMLTDPGDGRKVVCHPTAWDLGKGDFRIKMCTKVTMEDFLTAHHEMGHIQYDMAYASQPYLLRNGANEGFHEAVGEVMSLSVATPKHLKTMGLLSPDFLEDNETEINFLFKQALTIVGTLPFTYMLEKWRWMVFKGEIPKEEWMTKWWEMKRKIVGVVEPVPHDETYCDPASLFHVANDYSFIRYYTRTIFEFQFHEALCRIAKHDGPLHKCDISNSTDAGKKLHQMLSVGKSQPWTSVLKDFVDSKDMDVGPLLRYFEPLYTWLKEQNRNSFVGWNTDWSPYAD
What is called Kd is the constant that tells how readily two partners part at equilibrium. Low values mean higher affinity, high ones lower affinity. B1 displayed a Kd of 60.7 nM.

Values taken from article PMC10515872 (2023).
